{"source": "PubChem BioAssay AID720541", "about": "(National Center for Advancing Translational Sciences (NCATS), 2013)", "note": "What follows is the remainder of the data, with few or none of the hits. Records with an inconclusive call do not appear. Activity calls are given as the source filed them. Calls come from the whole dose curve; as a rule, active = well fitted inhibition curve with a large enough effect; inconclusive = small, poorly fitted or top-dose-only effect; inactive = no such curve, though single readings can be large or run the other way. % is set by controls: 0 for no effect and ±100 for the full control effect."}
{"molecular_target": "C-terminal-binding protein 1 (Homo sapiens) (UniProt Q13363)", "assay": "qHTS for Inhibitors of the Phosphatase Activity of Eya2: Carboxyl-terminal binding protein (CtBP) Counterscreen for Cherry-picked Compounds; note: nearly all actives have a fitted effect of over 65% in size", "settings": "purified protein-protein binding, AlphaScreen, 3 h; at 46.1 µM (top of the series)", "source_text": "The Eya protein family is an essential co-activator of the Six1 transcription factor. Six1 is a developmental gene that is abnormally re-expressed in a large percentage of breast cancers. This over-expression plays a causal role in the initiation and metastatic development of breast cancers. The Eya family of protein is also found to contain a unique HAD phosphatase domain with protein tyrosine phosphatase activity which can potentially play a role in Six1-mediated breast tumorigenesis. Recently, Eya2 is found to dephosphorylate the histone variant H2AX and direct cells towards DNA repair instead of apoptosis in the event of DNA damage.\nA 1536 well format, fluorescence based qHTS assay was developed and used to target the phosphatase activity of Eya2 (AID 488837). In addition, a CtBP counterscreen was developed using the AlphaScreen technology to evaluate compound selectivity to target […]. The data herein reports the activity of the cherry-picked compounds against the CtBP AlphaScreen. Compounds that are active or have > 100 fold selectivity vs. the Eya2 activity were excluded for further characterization. […]\nFour microliters of reagent (25 nM GST-E1A, 25 nM CtBP-6x HIS) was dispensed in a 1536 well Greiner plates. […] The AlphaScreen signal was obtained using the PerkinElmer EnVision plate reader using the 680 nm excitation and 520 - 620 nm emission filters. […]"}
{"smiles": "[Cl][V][Cl].c1cc[cH-]c1.c1cc[cH-]c1", "activity change, negative = inhibition": "inactive: 10.3%"}
